Assay results as given in PMC11332347.

Biological target: T1, MgrA (Staphylococcus aureus Newman) (UniProt P0C1S0)
T1 sequence (looked up, limits assumed): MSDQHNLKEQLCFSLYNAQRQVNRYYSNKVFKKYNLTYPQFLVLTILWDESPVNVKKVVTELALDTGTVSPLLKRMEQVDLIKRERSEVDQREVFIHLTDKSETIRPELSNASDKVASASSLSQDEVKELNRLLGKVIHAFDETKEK
Test: EMSA
Conditions: no isorhapontigenin (0 uM), 5 uM MgrA, 0.2 uM DNA, 20 uL binding buffer ([…], room temperature, 20 min, recombinant protein

CGGAATTAAATCAATTAATTAACTATTAAATAAAAATTAACTATATATGC (double strand) [hla promoter 50 bp fragment]
binding result: binds

The exact form of at least one protein or probe is not confirmed. At least one verdict rests on a figure or table, not on a statement of the authors. Protein sequences can lack the tags named with them.
